Results of unrelated studies side by side (data: NIAID ChemDB).

All rows: cytotoxicity tests; cell line: MT-4; measure: CC50

An empty or dashed field is not shown. CCn is the concentration with n% toxicity to the cells. Rows are shuffled and stem from different studies. Two numbers with a dash give a range or band.

SMILES	read by	value
C=C1CN(S(=O)(=O)c2ccc(C)cc2)CCCN(C(=O)OCC)CCCN(S(=O)(=O)c2ccc(C)cc2)C1	-	>75 µM
Cc1cn([C@@H]2O[C@H](CO)C[C@@H]2F)c(=O)nc1N	-	>500 µM
COc1ccc(Nc2nn3c(=O)c4ccccc4nc3s2)cc1	MTT	>99.15 µg/mL
C=C1CN(S(=O)(=O)c2ccc(C)cc2)CCCN(CC(C)CC)CCCN(S(=O)(=O)c2ccc(C)cc2)C1	-	34.5 µM
O=C1Nc2ccccc2Sc2c1[nH]c1ccccc21	-	96 µM
O=C(CCOCC(COCCC(=O)NC(Cc1c(-c2cc(C(=O)O)cc(C(=O)O)c2)[nH]c2ccccc12)C(=O)O)(COCCC(=O)NC(Cc1c(-c2cc(C(=O)O)cc(C(=O)O)c2)[nH]c2ccccc12)C(=O)O)COCCC(=O)NC(Cc1c(-c2cc(C(=O)O)cc(C(=O)O)c2)[nH]c2ccccc12)C(=O)O)NC(Cc1c(-c2cc(C(=O)O)cc(C(=O)O)c2)[nH]c2ccccc12)C(=O)O	MTS	>100 µM
O=c1[nH]c(=O)c2ncn([C@@H]3O[C@H](CO)[C@H]3CO)c2[nH]1	-	>300 µg/mL
CC(CO)n1cnc2c(Cl)ncnc21	-	>100 µM
CCc1c(Cc2ccccc2)nc(OC)[nH]c1=O	-	323 µM
COc1cccc2c1c(/C(O)=C1\COC(=O)C1=O)cn2Cc1ccc(F)cc1	MTT	71.39 µM
C[C@H](NP(=O)(OC[C@@H]1C=C[C@H](n2ccc3c(N)ncnc32)C1)Oc1ccccc1)C(=O)OCc1ccccc1	MTS	78 µM
O=c1ccn2cnc3c(ncn3[C@@H]3O[C@H](CO)[C@@H](O)[C@H]3O)c2n1	-	>1500 µM
CC1=NCC2(CC[C@H](C)N3C[C@H]2n2cc(C(=O)NCc4ccc(F)cc4F)c(=O)c(O)c2C3=O)O1	luminescence	50 µM
Cc1cnc(CNCc2ccc(CN3CCCNCCNCCCNCC3)cc2)cn1	MTT	>250 µg/mL
CCO/C(CC(=O)NCc1ccc(Br)cc1)=N\Nc1ccccc1[N+](=O)[O-]	MTT	53.28 µM
c1ccc(CCNCc2ccc(CN3CCCNCCNCCCNCC3)cc2)nc1	MTT	>250 µg/mL
O=C1Nc2ccc(Cl)cc2Sc2c1[nH]c1ccccc21	-	22 µM
Nc1ncnc2c1ncn2[C@H]1CC[C@@H](CO)O1	-	260 µg/mL
COc1nc(N(C)C)nc(C(=O)c2c(F)cccc2F)c1C	MTT	20 µM
CCc1c(Cc2ccccc2C)n(COCC#Cc2cccc3ccccc23)c(=O)[nH]c1=O	MTT	34 µM
CCO[C@]12CS(=O)(=O)O[C@@]13[C@@H](CN2)O[C@@H](n1cc(C)c(=O)[nH]c1=O)[C@@H]3OC(C)=O	-	>250 µM
C[C@H]1CC[C@@]2(ON=C(CF)[C@@H]2O)[C@H]2CN1C(=O)c1c(O)c(=O)c(C(=O)NCc3c(F)cc(F)cc3F)cn12	luminescence	50 µM
Cc1ccc(C2CC(C3CCC4C5CC=C6CC(O)CC[C@]6(C)C5CC[C@]34C)=NN2C(N)=S)cc1	-	7.49 µM
C[C@H]1CCC2(N=c3ccccc3=N2)[C@H]2CN1C(=O)c1c(O)c(=O)c(C(=O)NCc3c(F)cc(F)cc3F)cn12	luminescence	50 µM
O=c1cc(Cc2ccccc2)nc(OCCCCO)[nH]1	-	>1000 µM
NNc1nc2c(Cl)cccc2s1	MTT	>117 µg/mL
O=C(/C=C/C1=CC2C=Cc3cc(O)c(O)cc3OC2C(O)=C1)OC(Cc1ccc(O)c(O)c1)C(=O)O	-	3.7–24.1 µg/mL
C[C@H]1CC[C@]2(CC(=O)N(CC3CCOCC3)O2)[C@H]2CN1C(=O)c1c(O)c(=O)c(C(=O)NCc3c(F)cc(F)cc3F)cn12	luminescence	32.18 µM
CC1=C(/C=C/C=C/C=C/C=C/C(=O)Nc2ccn([C@H]3CS[C@@H](CO)O3)c(=O)n2)C(C)(C)CCC1	-	50 µM
O=c1ccn([C@@H]2O[C@H](CO)[C@@H](O)[C@H]2O)c2ccc(F)cc12	MTT	31–125 µg/mL
CC(=O)Nc1ccn([C@H]2CS[C@@H](CO)O2)c(=O)n1	-	380 µM
C=C1CN(S(=O)(=O)c2ccc(CBr)cc2)CCCN(Cc2ccccc2)CCCN(S(=O)(=O)c2ccc(CBr)cc2)C1	-	>75 µM
CCc1c(Cc2cc(C)cc(C)c2)n(COCc2cn(Cc3c(F)cccc3F)nn2)c(=O)[nH]c1=O	MTT	54 µM
C[C@]12CCC3C(CC=C4CC(O)CC[C@@]43C)C1CCC2C(/C=C/c1ccc(Br)cc1)=N/O	-	7.92 µM
Cc1cn([C@@H]2O[C@@H]3CN[C@@]4(OCC5CCOC5)CS(=O)(=O)O[C@@]34[C@H]2O[Si](C)(C)C(C)(C)C)c(=O)[nH]c1=O	-	29 µM
C[C@H]1CC[C@@]2(ON=C(CF)[C@@H]2O)[C@H]2CN1C(=O)c1c(O)c(=O)c(C(=O)NCc3ccc(F)cc3F)cn12	luminescence	50 µM
O=c1ccn([C@@H]2O[C@H](CO)[C@@H](O)[C@H]2O)c2c(F)cccc12	MTT	31–125 µg/mL
C=C1CN(S(=O)(=O)c2ccc(C)cc2)CCCN(Cc2cccnc2)CCCN(S(=O)(=O)c2ccc(C)cc2)C1	-	32.6 µM
CCS[C@]12CS(=O)(=O)O[C@@]13[C@@H](CN2)O[C@@H](n1cc(C)c(=O)[nH]c1=O)[C@@H]3O	-	208 µM
COc1cccc(OC)c1C(=O)c1nc(N(C)C)nc(OC)c1C	MTT	8 µM
CCO/C(CC(=O)NCc1ccc(C)cc1)=N\Nc1ccccc1[N+](=O)[O-]	MTT	18.16 µM
COC(=O)C(C)(C)NP(=O)(OC[C@@H]1C=C[C@H](n2ccc3c(N)ncnc32)C1)Oc1ccccc1	MTS	490 µM
CCc1c(Cc2cc(C)cc(C)c2)n(COCC#Cc2ccc([N+](=O)[O-])cc2)c(=O)[nH]c1=O	MTT	7 µM
CCCCOc1nc(Cc2ccccc2)cc(=O)[nH]1	-	290 µM
COC1=NO[C@@]2(CC[C@H](CF)N3C[C@H]2n2cc(C(=O)NCc4ccc(F)cc4F)c(=O)c(O)c2C3=O)C1	luminescence	50 µM
COc1ccc(CSc2nc(C(C)c3c(F)cccc3F)c(C)c(=O)[nH]2)cc1	MTT	>12.43 µM
Cc1cn([C@H]2C[C@H](N=[N+]=[N-])[C@@H](CO)O2)c(=O)[nH]c1=O	absorbance	222 µM
O=c1ccn([C@@H]2O[C@H](CO)[C@@H](O)[C@H]2O)c2cc(F)ccc12	MTT	31–125 µg/mL
CC1OC(Oc2c(-c3cc(O)c(O)c(O)c3)oc3cc(O)cc(O)c3c2=O)C(O)C(O)C1O	MTT	>300 µM
CCc1c(Cc2cc(C)cc(C)c2)n(COC/C(=C/Sc2ccccc2)Sc2ccccc2)c(=O)[nH]c1=O	MTT	60 µM
COc1cccc(F)c1C(=O)c1nc(N(C)C)nc(OC)c1C	MTT	7.8 µM
O=C1Nc2ccc(Cl)cc2Sc2c1[nH]c1ccc(Cl)cc21	-	200 µM
CCCCOc1nc(Cc2ccccc2)c(CC)c(=O)[nH]1	-	185 µM
CC(CO)n1cnc2c(Cl)nc(N)nc21	-	>100 µM
CCCCCO[C@]12CS(=O)(=O)O[C@@]13[C@@H](CN2)O[C@@H](n1cc(C)c(=O)[nH]c1=O)[C@@H]3O[Si](C)(C)C(C)(C)C	-	9 µM
CCO/C(CC(=O)NCc1ccc(F)cc1)=N\Nc1ccccc1[N+](=O)[O-]	MTT	5.17 µM
C=CCNc1nn2c(=O)c3ccccc3nc2s1	MTT	>97.1 µg/mL
CCc1c(Cc2ccccc2C)n(COCC#Cc2ccc(NC(=O)CBr)cc2)c(=O)[nH]c1=O	MTT	41 µM
C[C@]12CCC3C(CC=C4C[C@@H](O)CC[C@@]43C)C1CCC2C(=O)/C=C/c1ccccc1C(=O)O	-	13.98 µM
COc1ncnc2c1ncn2C(C)CO	-	>100 µM
CCOC(NC(=S)Nc1ccccn1)C(=O)c1ccccc1Cl	-	>200 µM
C=C1CN(S(=O)(=O)c2ccc(C)cc2)CCCN(CCC)CCCN(S(=O)(=O)c2ccc(C)cc2)C1	-	36.4 µM
CCc1c(Cc2ccccc2C)n(COCC#CC2c3ccccc3-c3ccccc32)c(=O)[nH]c1=O	MTT	50 µM
O=C(c1ccc(Cl)cc1)C(O)NC(=S)Nc1ccccn1	-	>400 µM
Cc1c(Cc2ccccc2)[nH]c(=O)[nH]c1=O	-	>1000 µM
CN(C)c1nc(Cl)cc(C(C#N)c2c(F)cccc2F)n1	MTT	80 µM
c1ccc(COC2C3COC(O3)C(OCc3ccccc3)C2OCc2ccccc2)cc1	MTT	>162 µg/mL
CCCCOc1nc(Cc2ccccc2)c(C)c(=O)[nH]1	-	146 µM
C=C1CN(S(=O)(=O)c2ccc(C)cc2)CCCN(C(C)=O)CCCN(S(=O)(=O)c2ccc(C)cc2)C1	-	>75 µM
Nc1ccn([C@@H]2O[C@H](CO)C[C@@H]2F)c(=O)n1	-	117 µM
CCCCCOc1nc(Cc2ccccc2)c(C)c(=O)[nH]1	-	195 µM
Nc1nc(N)c2ncn([C@@H]3O[C@H](CO)C[C@@H]3F)c2n1	-	>100 µM
COC(=O)[C@H](C)NP(=O)(OC[C@@H]1CC[C@H](n2cnc3c(N)ncnc32)C1)Oc1ccccc1	MTS	6.5 µM
C[C@H]1CC[C@]2(CC(=O)N(CCc3ccccc3)O2)[C@H]2CN1C(=O)c1c(O)c(=O)c(C(=O)NCc3c(F)cc(F)cc3F)cn12	luminescence	50 µM
Nc1ncnc2c1ccn2[C@@H]1C=C[C@H](CO)C1	MTS	>500 µM
CCOC(=O)c1[nH]c2ccccc2c1Sc1ccccc1N	-	≥200 µM
CCC(C)Oc1nc(Cc2ccccc2)cc(=O)[nH]1	-	344 µM
C[C@]12CCC3C(CC=C4CC(O)CC[C@@]43C)C1CCC2C1=NN(C(N)=S)C(c2ccc(C(F)(F)F)cc2)C1	-	7.92 µM

Repeating the final 6 entries:

SMILES | read by | value
COC(=O)[C@H](C)NP(=O)(OC[C@@H]1CC[C@H](n2cnc3c(N)ncnc32)C1)Oc1ccccc1 | MTS | 6.5 µM
C[C@H]1CC[C@]2(CC(=O)N(CCc3ccccc3)O2)[C@H]2CN1C(=O)c1c(O)c(=O)c(C(=O)NCc3c(F)cc(F)cc3F)cn12 | luminescence | 50 µM
Nc1ncnc2c1ccn2[C@@H]1C=C[C@H](CO)C1 | MTS | >500 µM
CCOC(=O)c1[nH]c2ccccc2c1Sc1ccccc1N | - | ≥200 µM
CCC(C)Oc1nc(Cc2ccccc2)cc(=O)[nH]1 | - | 344 µM
C[C@]12CCC3C(CC=C4CC(O)CC[C@@]43C)C1CCC2C1=NN(C(N)=S)C(c2ccc(C(F)(F)F)cc2)C1 | - | 7.92 µM